Potato spindle tuber viroid, loop 6: variant abundance in plants

Reference: Wu et al. 2024, doi:10.1371/journal.ppat.1012142.

The pool varies loop 6 of the PSTVd intermediate strain in the pattern UNNNCGNNNG; wild type is UGACCGCGAG (upper and lower strand joined, each 5' to 3', the first 5 letters being the upper strand, closing pairs included).

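A pool of all variants was put on leaves of three Nicotiana benthamiana plants. Progeny were sequenced from the inoculated region (day 5), the margin of the inoculated leaf (day 10) and systemic leaves (day 12).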

Numbers give reads per thousand; 0 = not seen among the reads, higher = more abundant. Each value is the mean of three plants. "Pool" is the share in the plasmid pool used as inoculum, on the same scale. The inoculated region was read from the minus strand, the other sites from the plus strand. IR is the inoculated region, LM the leaf margin, Sys the systemic leaves. Sequences that differ at fixed positions probably stem from PCR or sequencing errors, and defective variants can be carried along by functional ones. For reference, wild type rose from 20.7 per thousand in the pool to 195, 198, 203 (inoculated region), 629, 591, 734 (leaf margin) and 942, 870, 868 (systemic leaves). With 36,220-57,551 reads a sample, very low values are single reads.

sequence,pool,IR,LM,Sys
UUCCCGUCGG,0.275,0.125,0.00841,0
UUAGCGCGAU,0.0131,0.0430,0.0169,0
UAAUCGGCCG,0.183,0.650,0.0760,0
UCUCCGCUUG,0.222,0.0951,0.00920,0
UGGACGCGUG,0.131,0.608,0.0268,0
UUGUCGGUCG,0.196,0.0953,0.0184,0
UCGCCGCUCG,0.301,0.125,0.0184,0
UUUUCGUACG,0.301,0.0594,0.00920,0
UGUUCGCCAG,0.301,0.101,0.0155,0
UAAGCGUGCG,0.314,0.641,0.0552,0.0520
UGGACUGUCC,0.0131,0,0,0
UCCUCGACUG,0.235,0.0777,0,0
UGCACGUCCG,0.314,0.0543,0,0
UCGUCGUCAG,0.261,0.0773,0.00773,0
UGCACGUUUG,0.418,0.101,0,0
UUUUCGGUCG,0.209,0.101,0,0
UGCUCGAGUG,0.196,0.126,0,0
UAAACGGCUG,0.196,0.582,0.0884,0
UUCUCGGUGG,0.431,0.0836,0.0168,0
UGCACGACAG,0.183,0.0777,0.00773,0
UUGCCGGCGG,0.222,0.101,0,0
UCGCCGUAUG,0.275,0.107,0.135,0
UCGACGUCCG,0.261,0.0717,0,0
UAAGCGCUUG,0.170,0.113,0.0184,0
UAUUCGACGG,0.222,0.0766,0,0
UCGCCGGGGG,0.105,0.0884,0.00920,0
UUACCGCGUG,0.0654,0.168,0.00773,0.0271
UGUUCGCGCG,0.183,0.124,0.00773,0
UCGACGUGAG,0.327,0.125,0.0155,0
UUUCCGAGAG,0.196,0.179,0.0309,0.00599
UGGCCGGCAG,0.157,0.130,0.00920,0.00684
UUAGCGAAAG,0.118,0.143,0.00773,0
UUACCGGGCG,0.105,0.173,0.0169,0
UCGACGUAAG,0.0654,0.114,0,0
UCAACGAAUG,0.183,0.0604,0.00920,0
UCGACGUGUG,0.327,0.0656,0,0
UGGCUGUGAG,0.0131,0.500,0.0684,0
UGGUCGCAAG,0.170,0.144,0.00773,0
UGAGCGACCG,0.196,0.0710,0,0
UCGGCGACGG,0.275,0.0902,0.00920,0
UGAUCGUCUG,0.261,0.0775,0.00841,0.00684
UCUCCGGGCG,0.170,0.0824,0.00920,0
UCUCCGUCAG,0.222,0.101,0.0169,0
UGACCGCCUG,0.314,0.213,10.2,0.196
UUGUCGGUGG,0.445,0.0835,0.0252,0
UAAACGCAAG,0.0654,3.55,0.813,0.367
UCCCCGUUUG,0.445,0.0538,0,0
UGAACGCCAG,0.235,0.818,0.118,0
UUCGCGACAG,0.301,0.0901,0.00773,0.00684
UUCACGCUUG,0.248,0.0949,0.00773,0
UCCGCGAUCG,0.301,0.0648,0,0
UACGCGUCCG,0.183,0.107,0.00920,0
UCUACGCAUG,0.144,0.0840,0.0445,0
UACGCGCAGG,0.105,0.0297,0,0
UAGCCCUAGG,0.0131,0,0,0
UUAGCGCGGG,0.261,0.0831,0,0
UGAACGCAGG,0.183,0.150,0.0276,0.00684
UAGGCGGCGG,0.248,0.125,0,0
UGGGCGAAUG,0.261,0.0661,0,0
UGUUCGAAGG,0.261,0.0594,0,0.00684
UCAGCGUUUG,0.418,0.0903,0,0
UUCACGAGCG,0.366,0.0712,0,0
UGUUCGCUGG,0.222,0.0599,0.00773,0
UCAUCGGGGG,0.0784,0.0716,0.00773,0
UAUUCGCAGG,0.275,0.113,0.00920,0
UGCACGCCCG,0.209,0.0835,0.00773,0
UGGGCGGUUG,0.275,0.0710,0.00773,0

Extract of 6 entries:

sequence,pool,IR,LM,Sys
UACGCGUCCG,0.183,0.107,0.00920,0
UGAUCGUCUG,0.261,0.0775,0.00841,0.00684
UAUUCGACGG,0.222,0.0766,0,0
UUCGCGACAG,0.301,0.0901,0.00773,0.00684
UAGGCGGCGG,0.248,0.125,0,0
UUGUCGGUCG,0.196,0.0953,0.0184,0